# Source: US9375401B2, “Ophthalmic compositions with alkoxylated natural waxes” (Bausch & Lomb Incorporated, priority 2012, dated 2016)
# Test: PHMB uptake study
# Settings: overnight soak
# [1] = BBS with 5.0 ppm PHMB (control)
# [2] = BBS with 5.0 ppm PHMB plus 0.02 wt. % PEG-75 lanolin (test)
substance,measurement,setting,value
poly(hexamethylene biguanide) [PHMB],PHMB absorbed by PureVision lenses,[1],approximately 3.055 ppm
same,uptake of PHMB by PureVision lenses,[1],approximately 62%
same,PHMB absorbed by PureVision lenses,[2],approximately 1.907 ppm
same,uptake of PHMB by PureVision lenses,[2],approximately 38%
same,difference in percent uptake of PHMB by PureVision lenses,"test versus control, [62−38]/62×100",about 39%
